Data: patent publication US6602296B1, “Chemical supplementation of bone” (The University of Western Australia, priority 1997, dated 2003)
“Also recorded” adds a separate entry of the source.

Tests used:
[1] = Antibiotic iontophoresis in sheep tibia, antibiotic concentration in bone samples; details: for movement of ions through sheep cortex: 1% solution
Experimental: Quantitative analysis was then carried out to test iontophoresis as a means of antibiotic delivery in allograft bone. Specimens of sheep tibia were prepared as described above. […] A potential difference of 100 volts was applied for 1 minute, 5 minutes or 10 minutes with controls being set up the same way for 10 minutes except no potential difference was applied. A recording of current passed for each specimen was made.
Each sample was then washed in water and dried. Samples from 10 the endosteal and periosteal surfaces were then taken by drilling the bone using a 3 mm low speed drill, in 10 positions on each surface, and crushed to a fine powder. To a known mass of each sample was added distilled water (2 ml) and the sample agitated using ultrasound. The sample was then centrifuged and the supernatant removed and the process repeated a further 2 times. The last wash was left to soak for 12 hours before centrifuging. The Fucloxacillin specimens were refrigerated to 4° C. during this to minimise degradation by hydrolysis. The supernatant solutions were then analysed for antibiotic content; for gentamicin using Fluorescence Polarisation Immuno Assay (Abbot Axsym Analyser); and for flucloxacillin the assays were performed using High Performance Liquid Chromatography (HPLC) technique. From the levels in the supernatant solutions, the antibiotic concentrations in the bone samples were calculated.
Initial work was carried out using the sheep tibia model of allograft tubular bone. For each control and iontophoretic group, 5 specimens were used. Samples from the endosteal and periosteal surfaces were processed separately.

[2] = Simultaneous iontophoresis of gentamicin and flucloxacillin in opposite directions across sheep tibia; details: gentamicin 1% in medullary canal with anode, flucloxacillin 1% in beaker with cathode, 5 minutes
[3] = Iontophoresis of methylene blue across cortical bone discs or squares; design: species or system sheep
[4] = Tubular bone allograft model, methylene blue iontophoresis, sheep tibia
[5] = Control, no potential difference
[6] = iontophoresis, typical current 40 mamp
[7] = potential difference applied 1 Minute
[8] = potential difference applied 2 Minutes
[9] = potential difference applied 5 Minutes

Cc1onc(-c2c(F)cccc2Cl)c1C(=O)N[C@@H]1C(=O)N2[C@@H]1SC(C)(C)[C@@H]2C(=O)O [flucloxacillin, flucloxacillin Sodium]
movement of ions through sheep cortex ([1]; 100 volts): moved through sheep cortex by the iontophoretic gradient
time of iontophoresis after which high concentrations are achieved ([1]; sheep tibia): 1 min
penetration of the cortex [2]: levels in the periosteal samples only are elevated; also recorded: penetrates only the periosteal side

CN(C)c1ccc2nc3ccc(=[N+](C)C)cc-3sc2c1 [methylene blue]
penetration of the blue colour ([3]; control, no potential difference, methylene blue applied to one surface of cortical bone disc, after 20 minutes): very minimal penetration
migration of methylene blue ([3]; potential difference applied): migrate through the cortices
Macroscopic penetration [4, 5]: Minimal Penetration (Staining of
Microscopic staining [4, 5]: Staining on endosteal
time at which blue coloration of the periosteal surface was maximal [4, 6]: ≤ 5 min
time at which blue coloration of the periosteal surface was noted [4, 6]: approximately 1.5 minutes
Macroscopic penetration [4, 7]: Penetration 1.5 mm
Microscopic staining [4, 7]: Uniform staining of matrix to
Macroscopic penetration [4, 8]: Penetration 3 mm
Microscopic staining [4, 8]: Uniform staining of matrix to
Macroscopic penetration [4, 9]: Penetration full thickness of
Microscopic staining [4, 9]: Complete uniform

gentamicin Sulphate
movement of ions through sheep cortex ([1]; 100 volts): moved through sheep cortex by the iontophoretic gradient
time to peak level, endosteal specimens ([1]; 100 volts, sheep tibia): ≤ 1 min
time to peak level, periosteal samples ([1]; 100 volts, sheep tibia): 5 min
time of iontophoresis after which high concentrations are achieved ([1]; sheep tibia): 1 min
penetration of the cortex [2]: penetrates the full thickness of the cortex; also recorded: moves full thickness
